From patent publication US10660336B2 (priority 2014, dated 2020)

Tested on: pepper mottle virus (PepMoV)
Conditions: Nicotiana benthamiana; compound mixed with inoculum 30 min before inoculation; Trichodermin 50, 10, 5, 1 μM; Trichoderminol 2000, 1000, 500, 100 μM; 3, 6, 9, 12 dpi; versus DMSO control

CC(=O)O[C@@H]1C[C@H]2O[C@@H]3C=C(CO)CC[C@]3(C)[C@]1(C)[C@]21CO1
spreading rate of the pepper mottle virus (green fluorescent protein in upper leaves under UV, viral RNA and coat protein): inhibits spreading rate of the pepper mottle virus
